Anti-infective test results gathered from many reports (values: NIAID ChemDB through PubChem).

Common to all: target-level tests; species: HIV-1; protein: Reverse transcriptase; read by: nucleotide incorporation; measure: fold resistance

Lines come from different laboratories, so protocols vary.

Cc1cc2c(cc1C)n1cccc1c(=O)n2CCNC(=S)Nc1ccc(Br)cn1 ; changes: RT-V106A ; value: 0.6
CCCCN(C)C(=O)Oc1nsnc1-c1c(Cl)cccc1Cl ; strain or isolate: IIIB-R (RT-Y181C) ; changes: RT-Y181C ; value: 34.4
CCN1c2ncccc2C(=O)N(C)c2ccc(-c3cccc(O)c3)nc21 ; changes: RT-Y181C ; value: 8
O=c1c2cccn2c2cccc(F)c2n1CCNC(=S)Nc1ccc(Br)cn1 ; changes: RT-Y181I ; value: 22.2
CCCCCCN(C)C(=O)Oc1nsnc1-c1c(Cl)cccc1Cl ; strain or isolate: IIIB-R (RT-Y181C) ; changes: RT-Y181C ; value: >21.1
Cc1c(Sc2ccccc2)n(COCCO)c(=O)[nH]c1=O ; changes: RT-Y188L ; value: >100
Nc1cc(Cl)nc(SCc2ccc3ccccc3c2)n1 ; changes: RT-P236L ; value: 0.32
CCCN(C)C(=O)Oc1nsnc1-c1c(Cl)cccc1Cl ; strain or isolate: IIIB-R (RT-Y181C) ; changes: RT-Y181C ; value: 209
O=c1c2cccn2ccn1CCNC(=S)Nc1ccc(Br)cn1 ; changes: RT-Y181I ; value: 23.9
CCN1c2ncccc2C(=O)N(C)c2ccc(-c3ncc[nH]3)nc21 ; changes: RT-Y181C ; value: 0.2
CN(c1ncccc1CO)C1CCN(C(=O)c2cc3cc(NS(C)(=O)=O)ccc3[nH]2)CC1 ; strain or isolate: IIIB ; changes: RT-P236L ; value: 7
CCc1cc(CCc2nc3ccccc3o2)c(=S)[nH]c1C ; changes: RT-K103N ; value: 19
Nc1ncnc2c1ncn2[C@@H]1O[C@H](COP(=O)(O)OP(=O)(O)OP(=O)(O)O)C[C@@H]1F ; changes: RT-F77L F116Y Q151M ; value: 2.3
O=c1c2cccn2c2ccccc2n1CCNC(=S)Nc1ccc(Br)cn1 ; changes: RT-Y181I ; value: 69
Nc1ncnc2c1ncn2[C@H]1CC[C@@H](COP(=O)(O)OP(=O)(O)OP(=O)(O)O)O1 ; changes: RT-A62V V75I F77L F116Y Q151M ; value: 2.6
COc1ccc(/C=C/NC(=O)Nc2ccc(Cl)cn2)cc1OC ; changes: RT-Y181I ; value: 2.86
CCc1cc(CCc2nc3c(Cl)ccc(Cl)c3o2)c(=S)[nH]c1C ; changes: RT-Y181C ; value: 2
CCN1c2ncccc2C(=O)N(C)c2ccc(-c3c[nH]c4cnccc34)nc21 ; changes: RT-V106A ; value: 6.55

The last 2 rows once more:

SMILES,strain or isolate,changes,value
CCc1cc(CCc2nc3c(Cl)ccc(Cl)c3o2)c(=S)[nH]c1C,,RT-Y181C,2
CCN1c2ncccc2C(=O)N(C)c2ccc(-c3c[nH]c4cnccc34)nc21,,RT-V106A,6.55

Fold resistance: result on the changed form divided by that on wild type. Blank or dashed fields: not listed here.